Compound potency records, mixed from different reports. Data source: NIAID ChemDB in PubChem.

All rows: whole-cell or culture tests; agent: HIV-1; read by: syncytia; endpoint: EC50

An empty or dashed field is not shown. ECn: concentration that inhibits the pathogen or its effect by n%. Neighbouring rows are from separate reports.

{"smiles": "COc1ccc(C(=O)CSc2nc(Cc3ccccc3)c(C(C)C)c(=O)[nH]2)cc1", "cell line": "C8166", "strain or isolate": "IIIB", "result": "0.144 µM"}
{"smiles": "Cc1cn(C2OC(CO[Si](C)(C)C(C)(C)C)C3(OS(=O)(=O)C=C3N)C2O[Si](C)(C)C(C)(C)C)c(=O)n(CC2CO2)c1=O", "cell line": "CEM", "strain or isolate": "E138K", "result": ">10 µM"}
{"smiles": "Cc1occc1C(=S)Nc1ccc(Cl)c(/C=N/OC(C)(C)C)c1", "mutations": "RT-V106A", "cell line": "CEM", "strain or isolate": "IIIB", "result": "0.37 µM"}
{"smiles": "CC(C)c1c(Cc2cccc3ccccc23)nc(Sc2cccs2)[nH]c1=O", "cell line": "C8166", "strain or isolate": "IIIB", "result": "24.1 µM"}
{"smiles": "COc1ccc(C)cc1CS(=O)(=O)c1cccc[n+]1[O-]", "cell line": "CEM", "strain or isolate": "HE", "result": "38 µg/mL"}
{"smiles": "Cc1cn([C@@H]2O[C@H](C3CO[Si](C(C)C)(C(C)C)O[Si](C(C)C)(C(C)C)O3)C3(OS(=O)(=O)C=C3N)[C@H]2O[Si](C)(C)C(C)(C)C)c(=O)[nH]c1=O", "cell line": "CEM", "strain or isolate": "IIIB", "result": ">26.7 µM"}
{"smiles": "Cc1sccc1C(=O)Nc1ccc(Cl)c(OCC=C(Cl)Cl)c1", "mutations": "RT-V106A", "cell line": "CEM", "strain or isolate": "Nevirapine-resistant isolate (RT V106A)", "result": "1.2 µg/mL"}
{"smiles": "CCOCn1c(Sc2cc(C)cc(C)c2)c(CC)c(=O)[nH]c1=O", "mutations": "RT-K103N", "cell line": "CEM", "strain or isolate": "IIIB TIBO R82913-resistant (RT K103N)", "result": "0.07 µM"}
{"smiles": "C=C(C)[C@@H]1CC[C@]2(C(=O)NCCCCCCCC(=O)N[C@@H](CC(C)C)[C@@H](O)CC(=O)O)CC[C@]3(C)[C@H](CC[C@@H]4[C@@]5(C)CC[C@H](O)C(C)(C)[C@@H]5CC[C@]43C)[C@@H]12", "mutations": "GP41-Q39H", "cell line": "HeLa P4 + HeLa", "strain or isolate": "LAI", "result": "<10 µM"}
{"smiles": "CCc1c(Cc2ccccc2)nc(SCC(=O)c2ccccc2)[nH]c1=O", "cell line": "C8166", "strain or isolate": "IIIB", "result": "0.08 µM"}
{"smiles": "C#CCO/N=C/c1cc(NC(=S)c2ccoc2C)ccc1Cl", "cell line": "CEM", "strain or isolate": "IIIB", "result": "0.047 µM"}
{"smiles": "Nc1nc(Cl)cc(OC[C@H]2O[C@H](COCc3ccccc3)[C@@H](OCc3ccccc3)[C@H]2OCc2ccccc2)n1", "cell line": "CEM", "strain or isolate": "IIIB", "result": ">250 µM"}
{"smiles": "CC(C)OC(=O)c1cc(NC(=S)OC(C)C)ccc1Cl", "mutations": "RT-Y188L", "cell line": "CEM", "strain or isolate": "IIIB", "result": ">2 µM"}
{"smiles": "C/C(Cl)=C/COc1cc(NC(=O)c2ccoc2C)ccc1Cl", "mutations": "RT-L100I", "cell line": "CEM", "strain or isolate": "TIBO R82150-resistant (RT L100I)", "result": "0.7 µg/mL"}
{"smiles": "CN(Cc1nc2ccccc2[nH]1)Cc1ncccc1CCC#N", "cell line": "C8166", "strain or isolate": "IIIB", "result": "12.9 µM"}
{"smiles": "Cc1cn(C2OC(CO[Si](C)(C)C(C)(C)C)C3(OS(=O)(=O)C=C3N)C2O[Si](C)(C)C(C)(C)C)c(=O)n(/C=C\\CO)c1=O", "cell line": "CEM", "strain or isolate": "IIIB", "result": "0.12 µM"}
{"smiles": "C=C(Cl)COc1cc(NC(=S)c2ccoc2C)ccc1Cl", "mutations": "RT-E138K", "cell line": "CEM", "strain or isolate": "TSAO-m3T-resistant (RT E138K)", "result": "0.26 µg/mL"}
{"smiles": "Cc1c(Cc2ccccc2)nc(SCC(=O)c2ccccc2)[nH]c1=O", "cell line": "C8166", "strain or isolate": "IIIB", "result": "0.8 µM"}
{"smiles": "Cc1cn([C@@H]2O[C@H](C(CO[Si](C)(C)C(C)(C)C)O[Si](C)(C)C(C)(C)C)C3(OS(=O)(=O)C=C3N)[C@H]2O[Si](C)(C)C(C)(C)C)c(=O)[nH]c1=O", "cell line": "CEM", "strain or isolate": "IIIB", "result": ">136 µM"}
{"smiles": "CN(Cc1nc2ccccc2[nH]1)Cc1ncccc1CCC(=O)O", "cell line": "C8166", "strain or isolate": "IIIB", "result": ">200 µM"}
{"smiles": "O=C1NCC2(C(=O)C3C=CC=CC13)C1CC3CC(C1)CC2C3", "cell line": "CEM", "strain or isolate": "IIIB", "result": ">20 µg/mL"}
{"smiles": "Cc1ccc(C)c(CS(=O)(=O)c2cccc[n+]2[O-])c1", "mutations": "RT-K103N", "cell line": "CEM", "strain or isolate": "IIIB", "result": "11 µg/mL"}
{"smiles": "Nc1cc(OC[C@H]2CC[C@@H](COCc3ccccc3)O2)ncn1", "cell line": "CEM", "strain or isolate": "IIIB", "result": ">50 µM"}
{"smiles": "O=C1c2ccccc2C(=O)N1CCC12CC3CC(CC(C3)C1)C2", "cell line": "CEM", "strain or isolate": "IIIB", "result": ">4 µg/mL"}
{"smiles": "CCc1c(Sc2cc(C)cc(C)c2)n(COCCO)c(=S)[nH]c1=O", "mutations": "Nevirapine resistant (RT Y181C)", "cell line": "CEM", "strain or isolate": "IIIB", "result": "0.38 µM"}
{"smiles": "Cc1cn(C2OC(CO[Si](C)(C)C(C)(C)C)C3(OS(=O)(=O)C=C3N)C2O[Si](C)(C)C(C)(C)C)c(=O)n(CCCNC(=O)c2ccc(C(=O)c3ccccc3)cc2)c1=O", "cell line": "CEM", "strain or isolate": "E138K", "result": ">50 µM"}
{"smiles": "Nc1cc(OCC2O[C@H](COCc3ccccc3)[C@@H](OCc3ccccc3)[C@H]2OCc2ccccc2)nc(N)n1", "cell line": "CEM", "strain or isolate": "IIIB", "result": ">10 µM"}
{"smiles": "CN(Cc1ccc2ccccc2n1)Cc1ncccc1CCC#N", "cell line": "C8166", "strain or isolate": "IIIB", "result": "15 µM"}
{"smiles": "Nc1cc(OC[C@H]2CC[C@@H](COCc3ccccc3)O2)nc(N)n1", "cell line": "CEM", "strain or isolate": "IIIB", "result": ">250 µM"}
{"smiles": "C/C(Cl)=C/COc1cc(NC(=S)c2ccoc2C)ccc1Cl", "mutations": "RT-E138K", "cell line": "CEM", "strain or isolate": "TSAO-m3T-resistant (RT E138K)", "result": "0.008 µg/mL"}
{"smiles": "CC(C)c1c(Sc2ccccc2)n(COCc2ccccc2)c(=S)[nH]c1=O", "mutations": "RT-Y188H", "cell line": "CEM", "strain or isolate": "IIIB", "result": "≥10 µM"}
{"smiles": "CCCCCCCCCC[N+](C)(C)CCCNCc1c(O)cc2c(c1O)-c1cc(ccc1O)[C@H]1NC(=O)[C@@H]3NC(=O)C4NC(=O)[C@@H](Cc5ccc(c(Cl)c5)Oc5cc3cc(c5O)Oc3ccc(cc3Cl)[C@@H](O)[C@H](NC1=O)C(=O)N[C@@H]2C(=O)O)NC(=O)[C@H](N)c1ccc(O)c(c1)Oc1cc(O)cc4c1", "mutations": "RT-Y188H", "cell line": "CEM", "strain or isolate": "RT-K188H", "result": "6 µM"}
{"smiles": "CCOCn1c(Cc2cc(C)cc(C)c2)c(CC)c(=O)[nH]c1=O", "mutations": "Nevirapine resistant (RT Y181C)", "cell line": "CEM", "strain or isolate": "IIIB", "result": "0.06 µM"}
{"smiles": "COc1ccc(NC(=S)C2=C(C)OCCS2)cc1OCC=C(Cl)Cl", "mutations": "RT-L100I", "cell line": "CEM", "strain or isolate": "TIBO R82150-resistant (RT L100I)", "result": "1.8 µg/mL"}
{"smiles": "CCc1c(Cc2cc(C)cc(C)c2)n(COCCO)c(=O)[nH]c1=O", "mutations": "RT-Y188H", "cell line": "CEM", "strain or isolate": "IIIB", "result": ">10 µM"}
{"smiles": "O=S(=O)(O)c1cc(Cl)cc(Cc2cc(Cl)cc(S(=O)(=O)O)c2O)c1O", "cell line": "CEM", "strain or isolate": "IIIB", "result": "122.7 µg/mL"}
{"smiles": "COc1ccc(CCSc2nc(Cc3cccc4ccccc34)c(C(C)C)c(=O)[nH]2)cc1", "cell line": "C8166", "strain or isolate": "IIIB", "result": "20.9 µM"}
{"smiles": "N#CCCC12CC3CC(C1)CC(N1C(=O)c4ccccc4C1=O)(C3)C2", "cell line": "CEM", "strain or isolate": "IIIB", "result": ">4 µg/mL"}
{"smiles": "Cc1cc(C)c(CS(=O)c2cccc[n+]2[O-])c(C)c1", "cell line": "CEM", "strain or isolate": "RF", "result": "12 µg/mL"}
{"smiles": "C.NCCCCN(Cc1nc2ccccc2[nH]1)C1CCCn2ccnc21", "cell line": "C8166", "strain or isolate": "IIIB", "result": "0.139 µM"}
{"smiles": "Cc1sccc1C(=S)Nc1ccc(Cl)c(OCC=C(Cl)Cl)c1", "mutations": "RT-Y188H", "cell line": "CEM", "strain or isolate": "HEPT-resistant (RT Y188H)", "result": "2 µg/mL"}
{"smiles": "CCOCn1c(Sc2ccccc2)c(C(C)C)c(=O)[nH]c1=S", "mutations": "RT-K103N", "cell line": "CEM", "strain or isolate": "IIIB TIBO R82913-resistant (RT K103N)", "result": "1 µM"}
{"smiles": "O=C1c2ccccc2C(=O)N1C12CC3CC(CC(C3)C1)C2", "cell line": "CEM", "strain or isolate": "IIIB", "result": ">4 µg/mL"}
{"smiles": "CCOCn1c(Sc2ccccc2)c(C(C)C)c(=O)[nH]c1=O", "mutations": "Nevirapine resistant (RT Y181C)", "cell line": "CEM", "strain or isolate": "IIIB", "result": "2 µM"}
{"smiles": "CCC(O)C(N)C(=O)O", "cell line": "MT-4", "result": "<750 µM"}
{"smiles": "CC(C)c1c(Cc2cccc3ccccc23)nc(SCC(=O)c2ccccc2)[nH]c1=O", "cell line": "C8166", "strain or isolate": "IIIB", "result": "0.28 µM"}
{"smiles": "COc1ccc(NC(=O)C2=C(C)OCCS2)cc1OCC=C(Cl)Cl", "mutations": "RT-Y181C", "cell line": "CEM", "strain or isolate": "Pyridone-resistant (RT Y181C)", "result": "10 µg/mL"}
{"smiles": "CCOCn1c(Cc2ccccc2)c(C(C)C)c(=O)[nH]c1=O", "mutations": "Nevirapine resistant (RT Y181C)", "cell line": "CEM", "strain or isolate": "IIIB", "result": "0.23 µM"}
{"smiles": "CN[C@@H]1[C@H](O[C@@H]2OC[C@@H](O)[C@H](O)[C@H]2O)[C@@H](O)[C@H](O[C@H]2c3cc(C)c(C(=O)N[C@H](C)C(=O)O)c(O)c3-c3c(cc4c(c3O)C(=O)c3cc(OC)cc(O)c3C4=O)[C@@H]2O)O[C@@H]1C", "cell line": "CEM", "strain or isolate": "Mutant AH_1/#43", "result": "4.5 µM"}
{"smiles": "O=C1NC23CC4CC(C2)C2C(C4)C3C2(O)c2ccccc21", "cell line": "CEM", "strain or isolate": "IIIB", "result": ">20 µg/mL"}
{"smiles": "CCc1c(Sc2cc(C)cc(C)c2)n(COCc2ccccc2)c(=S)[nH]c1=O", "mutations": "RT-E138K", "cell line": "CEM", "strain or isolate": "IIIB", "result": "0.01 µM"}

For reference, 3 entries again:

smiles | mutations | cell line | strain or isolate | result
Cc1cn([C@@H]2O[C@H](C3CO[Si](C(C)C)(C(C)C)O[Si](C(C)C)(C(C)C)O3)C3(OS(=O)(=O)C=C3N)[C@H]2O[Si](C)(C)C(C)(C)C)c(=O)[nH]c1=O | - | CEM | IIIB | >26.7 µM
COc1ccc(C)cc1CS(=O)(=O)c1cccc[n+]1[O-] | - | CEM | HE | 38 µg/mL
O=C1c2ccccc2C(=O)N1C12CC3CC(CC(C3)C1)C2 | - | CEM | IIIB | >4 µg/mL